# Experimental data: PubChem BioAssay AID504761 (Drosophila RNAi Screening Center, 2011)
# Test: 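Fly genes whose silencing reduces dengue virus type 2 infection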 (primary screen)
# Cell system: D.Mel-2 cells from Drosophila
# Reagents: long dsRNA against Drosophila genes
# Challenge: infection with dengue virus type 2; dose and infection time not stated
# Measured: 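Per well on two replicate plates, imaging gave the percent of cells positive for viral envelope protein, ranked by infection, and a nuclear count of cells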
# Scale: infection score: higher = more virus-infected cells; cell count: higher = more cells in the well
# Rule for the call: 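Very low infection ranking in both replicate wells (chance probability at most 0.065), then a retest showing infection dropped 1.5-fold or more at p below 0.05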
# Meaning of the calls: active = confirmed: knock-down lowers infection; inactive = not picked or not confirmed
# In all, the deposit lists about 22,000 reagents; shown is a random part of those with a known target gene and a result. Of all reagents, 116 (0.52%) are marked active. 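Calls depend on retest data that are not deposited; infection was ranked per plate without normalising between plates; the unit of the infection score is not given.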 Raw values are not corrected between plates. Unmarked entries are inactive. The numbers tell different reagents against one gene apart. A plus sign joins genes that one reagent is predicted to hit. Further read-outs or replicates are left out here. Not given: the amount of reagent, the time to read-out.
gene,dsRNA no.,"infection score, replicate 1","infection score, replicate 2","cell count, replicate 1"
CG12645,1,5.06,12,6739
CG12645,2,2.38,4.7,6429
Pcd (pterin-4a-carbinolamine dehydratase),1,11.4,,1054
CG15023,1,3.81,5.24,6064
CG15023,2,1.71,4.5,5679
Pdzd8 (PDZ domain containing 8),1,5.53,5.47,5586
Pdzd8 (PDZ domain containing 8),2,9.05,8.9,6080
Pi3K68D (Phosphatidylinositol 3-kinase 68D),1,16.8,9.33,5596
Pi3K68D (Phosphatidylinositol 3-kinase 68D),2,12.3,1.57,2036
Zip99C (Zinc/iron regulated transporter-related protein 99C),1,8.68,7.09,1071
qua (quail),1,2.18,10.5,6699
CG3078,1,5.23,7.44,6921
CG3078,2,6.96,2.7,6451
CG14423,1,0.91,0.75,6278
CG14423,2,3.15,9.31,6154
CG12325,1,12.3,1.91,4894
Coprox (Coproporphyrinogen oxidase),1,2.88,5.54,6052
Coprox (Coproporphyrinogen oxidase),2,5.73,8.63,5464
CG5335,1,20.5,8.73,5837
CG5335,2,1.95,1.59,5638
CG4975 + CG4984,1,8.04,2.54,6380
E23 (Early gene at 23),1,1.82,4.13,6479
E23 (Early gene at 23),2,2.1,1.54,6859
CG11200,1,11.9,17.2,6171
CG11200,2,17.1,23.3,6359
RluA-1 (RluA pseudouridine synthase 1),1,3.2,3.14,6316
RluA-1 (RluA pseudouridine synthase 1),2,2.05,,6696
Acat1 (Acetyl-CoA acetyltransferase 1),1,3.73,33.1,6728
Acat1 (Acetyl-CoA acetyltransferase 1),2,6.73,,4293
RabGGTa (Rab geranylgeranyltransferase subunit alpha),1,6.68,16.3,6574
DNAlig4 (DNA ligase 4),1,0.88,2.67,6330
CG16762,1,2.63,3.67,6537
Abca3 (ATP binding cassette subfamily A member 3),1,4.72,4.17,5993
CG1909,1,2.72,2.89,6130
msk (moleskin),1,6.78,5.4,6567
msk (moleskin),2,6.33,0.98,5828
Spp (Signal peptide peptidase),1,0.92,0.53,6110
CG13931,1,2.06,0.58,5924
CG13931,2,2.24,4.15,6470
Hrb98DE (Heterogeneous nuclear ribonucleoprotein at 98DE),1,10.6,9.28,4674
Hrb98DE (Heterogeneous nuclear ribonucleoprotein at 98DE),2,0.94,1.83,4806
Nup188 (Nucleoporin 188kDa),1,30,21.8,2582
Nup188 (Nucleoporin 188kDa),2,13.1,1.89,4192
CG18473,1,7.42,4.98,6694
CG11779 + CG5835,1,3.07,1.2,6151
CG11779 + CG5835,2,14.9,3.77,5236
CG9747,1,3.41,4.27,6547
CG9747,2,10.7,16.9,4666
Cyp6a23 (Cytochrome P450 6a23),1,10.7,11.3,3774
Cyp6a23 (Cytochrome P450 6a23),2,2.76,15.3,1377
Mgat4a,1,0.69,3.71,6543
Mgat4a,2,2.5,1.73,6032
SIFa (SIFamide),1,6.55,3.96,5953
CG11656,1,12.4,30.2,3678
CG11656,2,6.79,0.64,1178
CG13102,1,5.2,0.21,6792
CG4907,1,0.85,1.02,5986
mmm (missing minor mitochondria),1,1.86,1.15,6070
